Holding throughout (experiment): pseudovirus neutralization IC50; higher = weaker neutralization
For experiment [1], the target named is SARS-CoV-2 Omicron BA.1 spike pseudovirus. The protocol:
(§1)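 Single-round VSV luciferase pseudovirus mixed with antibody dilutions for 1 h and put on Huh-7 cells for about a day; IC50 from the dose curve.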

The target of experiment [2] is SARS-CoV-2 Omicron BA.2 spike pseudovirus. The protocol: as §1
Experiment [3] has as its target SARS-CoV-2 Omicron BA.2.75 spike pseudovirus. The protocol:
as §1

Experiment [4] has as its target SARS-CoV-2 Omicron BA.5 spike pseudovirus. The protocol: as §1
Experiment [5] concerns the target SARS-CoV-2 Omicron BQ.1.1 spike pseudovirus. The protocol:
as §1

Experiment [6] concerns the target SARS-CoV-2 Omicron XBB spike pseudovirus. The protocol:
as §1

Experiment [7] concerns the target SARS-CoV-2 early D614G spike pseudovirus. The protocol:
as §1

These results are taken from the supplement of paper PMC9931576.

Human monoclonal antibodies against the spike receptor-binding domain (heavy:light variable regions). IC50 against pseudoviruses bearing the spike of naturally observed variants; lower = stronger; >10 µg/ml means not reached at the top dose. No active / inactive call. The stated detection limit is 0.0005 µg/ml; values near or below 0.001 µg/ml lie at the floor of the assay.

B1: BD56-1313 (protein)
chain 1: QVQLVESGGGVVQPGRSLRLSCATSGFTFRHYAMHWVRQAPGKGLEWLAVIWYDGSDKYHTASVKGRFTISRDNSNNRLYLQMNTLKVEDTAVYYCAKNFMPYCAAGACSGGVMDYWGQGTLVTVSS
chain 2: DIQMTQSPSSLSASVGDRVTITCQASQDIGNYLNWYQLKPGKAPKLLIYDASSLETGVPSRFSGSGSGTHFTFSISSLQPEDFATYYCQQYGNLPQTFGPGTKVDIK
Regarding B1, the “pseudovirus neutralization IC50” value in experiment [1] was 2.56 µg/mL; in experiment [2] it was 2.57 µg/mL; in experiment [3], 1.99 µg/mL; in experiment [4] it was 2.38 µg/mL; in experiment [5] it was 1.71 µg/mL; in experiment [6], 2.64 µg/mL. For the same molecule, in experiment [7], the “pseudovirus neutralization IC50” value was 1.93 µg/mL.

B2: BD56-1284 (protein)
chain 1: EVYLVESGGGLIQPGGSLRLSCAASEIIVNRNYMTWVRQAPGKGLDWVSTVYSGGTTYYADSVKGRFTVSRDNSKNTMYLQMNSLRAEDTAVYYCARGELGMPFGMDVWGQGTTVTVSS
chain 2: QSVLTQPPSVSAASGQRVTISCSGSSSNIGDNYVSWYQQLPGTAPKLLIYDNDKRPSGIPDRFSGSKSGTSATLGITGLQTGDEADYYCGTWDSSLSAGLFGGGTRLTVL
Consider B2, for which the “pseudovirus neutralization IC50” value in experiment [1] came to 0.0337 µg/mL; in experiment [2], 0.0242 µg/mL; in experiment [3], 0.532 µg/mL; in experiment [4], 0.13 µg/mL; in experiment [5], 4.92 µg/mL; in experiment [6], 3 µg/mL. For the same molecule, the “pseudovirus neutralization IC50” value in experiment [7] worked out at 0.0046 µg/mL.

B3: BD56-1282 (protein)
chain 1: QVQLVQTGAEVKKPGSSVKVSCKTSGGLIINYAVSWVRQAPGQGLEWMGDIIPILDTTNYAQKFQGRVMISADKSTSTAYLELRSLRFEDTAVYYCAAGGQYCGGGSCYSSYFDYWGQGALVSVSP
chain 2: EIVLTQSPGTLSLSPGERATLSCRASQSISSSHLAWYQQKPGQAPRLLIYGASSRATGIPDRFSGSGSGTDFTLTISRLAPEDFAVYYCHQYGSSPQRTFGQGTKVEIK
On to B3, for which the “pseudovirus neutralization IC50” value was 0.119 µg/mL in experiment [1]; 0.0042 µg/mL in experiment [2]; 0.0217 µg/mL in experiment [3]; 3.09 µg/mL in experiment [4]; 2.57 µg/mL in experiment [5]; greater than 10 µg/mL in experiment [6]. In addition, in experiment [7], the “pseudovirus neutralization IC50” value came out at 0.217 µg/mL.

B4: BD56-1308 (protein)
chain 1: EVHLVQSGAEVKKPGASVKVSCKASGHSFTSHYIHWVRQARGQGLEWMGIINPSAGSTTYAQKFQGRVTMTTDTSTSTVYMELSRLKSDDTAVYYCARDESFIPAMGWFDPWGQGTLVTVSS
chain 2: EIVLTQSPATLSLSPGERATLSCRASQSVSRYIAWYQQKPGQAPRLLIYDASNRATGIPARFSGSGSGTDFTLTISSLEPEDFTVYYCQQRSNWPPSYTFGQGTKLEIK
Take B4: the “pseudovirus neutralization IC50” value was 3.32 µg/mL in experiment [1]; 3.31 µg/mL in experiment [2]; greater than 10 µg/mL in experiment [3]; greater than 10 µg/mL in experiment [4]; greater than 10 µg/mL in experiment [5]; greater than 10 µg/mL in experiment [6]. Besides, in experiment [7], the “pseudovirus neutralization IC50” value is greater than 10 µg/mL.

B5: BD56-1279 (protein)
chain 1: QVQLVQSGAEVRKPGSSVKVSCKASGGTFSSHVISWVRQAPGQGLEWMGKIIPVLDITDYAQKFQDRVTITADKSTSTVYMELSSLRSEDTAVFYCARHQNTVTTFGIGHYYGMDVWGQGTTVTVSS
chain 2: DIQMTQSPSTLSASVGDKVTITCRASQSISNWLAWYQQKPGKAPKLLIYEASSLQSGVPLRFSGSGSGTEFTLTISSLQPDDFATYYCQQYNSYPSFGLGTKVEIK
As to B5, the “pseudovirus neutralization IC50” value in experiment [1] is 0.0191 µg/mL; in experiment [2] it was 0.0126 µg/mL; in experiment [3] it was 0.023 µg/mL; in experiment [4], greater than 10 µg/mL; in experiment [5], greater than 10 µg/mL; in experiment [6] it was 3.3 µg/mL. For the same molecule, the “pseudovirus neutralization IC50” value in experiment [7] is 0.0846 µg/mL.

B6: BD56-1293 (protein)
chain 1: QVQLVESGGGVVQPGRSLRLSCAASGFTLSRYVMHWVRQAPGKGLEWVADISSDGTMTNYADSVKGRFALSRDNSKNTLYLQMNSLRDDDTAIYYCARDTDQMIVVVLDYWGQGTLVTVSS
chain 2: DIQMTQSPSSLSASVGDRVTITCRASQSLSTYLNWYQQKPGKAPKLLIYAASTLQSGVPSRFSGSGSGTDFTLTISSLQPEDFATYYCQQSYIAPPLTFGGGTKLEIK
Regarding B6, the “pseudovirus neutralization IC50” value in experiment [1] is 4.29 µg/mL; in experiment [2] it was 2.75 µg/mL; in experiment [3], 1.33 µg/mL; in experiment [4], 2.65 µg/mL; in experiment [5], 2.95 µg/mL; in experiment [6] it was 4.12 µg/mL. Also, the “pseudovirus neutralization IC50” value in experiment [7] is greater than 10 µg/mL.

B7: BD56-1286 (protein)
chain 1: QVQLQESGPGLVKPSQTLSLTCTVSGGSIGSGGYYWSWVRQHPGRGLDWIGYVFYSGSTFYNPSLRSRVTIAVDTSKNQFYLKLRSVTAADTAVYYCARDQGGSTWAPDAFDIWGQGTMVIVSS
chain 2: DIQMTQSPSSLSASAGDRITITCQASQDISNYLNWYQQKPGKAPKLLIYDASNLEKGVPSRFSGSGSGTYFTFTISSLQPEDFATYYCQQYDNLPLTFGGGTKVEIK
In the case of B7, the “pseudovirus neutralization IC50” value was 0.0444 µg/mL in experiment [1]; 0.0156 µg/mL in experiment [2]; 0.0887 µg/mL in experiment [3]; 0.0148 µg/mL in experiment [4]; greater than 10 µg/mL in experiment [5]; greater than 10 µg/mL in experiment [6]. The “pseudovirus neutralization IC50” value in experiment [7] was 0.066 µg/mL.

B8: BD56-1298 (protein)
chain 1: EVQLVESGGGLVQPGGSLRLSCAASGFTFSSYDMHWVRQATGDSLEWVSTIGTSDDTYYAGSVRGRFTISRENGKNSLYLQMNSLRAGDTAVYYCARTDYQNTLVGYFDLWGRGTLVTVSS
chain 2: DIQMTQSPSSLSASLGDRVTITCRASQYISNYLNWFQQKPGKAPKLLIYAASSLQSGVPSRFSGSGFGTDFTLTISSLQPEDFATYYCQQSYITPELIFGPGTKVDIK
Take B8: the “pseudovirus neutralization IC50” value in experiment [1] is 2.85 µg/mL; in experiment [2], 3.22 µg/mL; in experiment [3] it was 2.71 µg/mL; in experiment [4], 2.87 µg/mL; in experiment [5] it was 3.08 µg/mL; in experiment [6] it was 3.43 µg/mL. The “pseudovirus neutralization IC50” value in experiment [7] is 1.07 µg/mL.

B9: BD56-1290 (protein)
chain 1: QITLKESGPTLVKPTQTLTLTCTFSGFSLSTSGVGVGWIRQPPGKALEWLALIYWDDDSRYSPSLKTRLTITKDTSKNQVVLTLTNMDPVDTATYYCGHFTIDMIVGYWGQGTLVTVSS
chain 2: QSALTQPASVSGSPGQSITISCTATSIDVGAFHYVSWYQHHPGKAPKLIIFDVTNRPSGVSNRFSGSKSGNTASLTISGLQAEDEADYYCSSYTDSTVVFGGGTKLTVL
On to B9, for which the “pseudovirus neutralization IC50” value in experiment [1] is 0.00215 µg/mL; in experiment [2], 0.00101 µg/mL; in experiment [3], 0.00223 µg/mL; in experiment [4] it was 0.00145 µg/mL; in experiment [5] it was greater than 10 µg/mL; in experiment [6] it was 0.966 µg/mL. In experiment [7], the “pseudovirus neutralization IC50” value turned out to be 0.001 µg/mL.

B10: BD56-1310 (protein)
chain 1: QVQLVQSGAEVKKPGASVKVSCKASGYTFTTYHIHWVRQAPGQGLEWMGIINPSGGTRRYAQNFQGRVSMTGDTSASTVYMELSSLRSEDTAIYYCARELVVPAAGYMDVWGKGTTLTVSS
chain 2: SDVLTQPPSVSVAPGKTARVTCGGNNIGSTSVHWYQQKPGQAPVLVLSDDSDRPSGIPERFSGSSSGNTATLTISRVEAGDEADYYCQVFDGSTDHFYVFGSGTKVTVL
As to B10, the “pseudovirus neutralization IC50” value in experiment [1], in experiment [2], in experiment [3], in experiment [4], in experiment [5] and in experiment [6] was greater than 10 µg/mL each time. In experiment [7], the “pseudovirus neutralization IC50” value was greater than 10 µg/mL.

B11: BD56-1312 (protein)
chain 1: QVQLVESGGGVVQPGRSLRLSCAASGFTFSSYSFHWVRQAPRRGLEWVAVISSDGNIKFYAESVKGRFTISRDNSRNTMYLQMNSLSAEDAAVYYCARDRDDSSGWFVDYWGQGTRVTVSS
chain 2: DIQMTQSPSSLSASVGDRVTITCRASQGIKNSLAWYQQKPGKAPKLLLYAASRLESGVPSRFSGSGSGTDYSLTISSLQPEDFATYYCQQYYGMPPITFGQGTRLEIK
Turning to B11, the “pseudovirus neutralization IC50” value was 4.04 µg/mL in experiment [1]; 3.38 µg/mL in experiment [2]; 3.03 µg/mL in experiment [3]; 3.99 µg/mL in experiment [4]; 2.91 µg/mL in experiment [5]; 4.2 µg/mL in experiment [6]. In experiment [7], the “pseudovirus neutralization IC50” value was 0.952 µg/mL.

B12: BD56-1297 (protein)
chain 1: QVQLVQSGAEVKKPGSSVKVSCKASGGTFSSYDISWVRQAPGQGLEWMGRIIPILGIASYAQKFQGRLTITADESTSTAYMELSTLRSEDTGVYYCAREAANLEMATGWTYNRFDPWGQGTLVTVSS
chain 2: DIQMTQSPSSLSASVGDRVTITCRASQSISSYLNWYQQEPGKAPKLLIYAASSLQSGVPSRFSGSGSGTDFTLTISGLQPEDFATYYCQQSYNSLSTFGPGTKVDIK
For the molecule B12, the “pseudovirus neutralization IC50” value in experiment [1] was 0.00777 µg/mL; in experiment [2] it was 0.00308 µg/mL; in experiment [3], 0.0071 µg/mL; in experiment [4], greater than 10 µg/mL; in experiment [5], greater than 10 µg/mL; in experiment [6] it was greater than 10 µg/mL. Also, the “pseudovirus neutralization IC50” value in experiment [7] was 0.138 µg/mL.
